Anti-infective test results gathered from many reports (values: NIAID ChemDB through PubChem).

Shared fields: cytotoxicity tests; cells: Huh7; endpoint: CC50

Rows are shuffled and stem from different studies.

SMILES	method	value
O=C1CN(C(C(=O)N2CCC[C@H]2C(=O)Nc2ccc(C#Cc3ccc(NC(=O)[C@@H]4CCCN4C(=O)C(c4ccccc4)N4CCNC(=O)C4)cc3)cc2)c2ccccc2)CCN1	resazurin	>10 µM
COc1ccc(C(=O)O/N=C(\N)Cc2ccc([N+](=O)[O-])cc2)c(OC)c1	MTS	45.1 µM
CCOC(=O)c1c(CSc2cccs2)n(C)c2cc(Br)c3c(c12)CN(C)CO3	ATP	20.1 µM
COc1ccc(-c2cnc3nc(N)nc(N4CCN(C(=O)Nc5cccc(Cl)c5)CC4)c3n2)cc1OC	ATP	<10 µM
C[C@@H]1[C@H](n2ccc(N)nc2=O)O[C@@](CO)(N=[N+]=[N-])[C@H]1O	MTS	>100 µM
Nc1ncnc2c1cnn2[C@@H]1C=C(CO)[C@@H](O)[C@H]1O	tetrazolium	>100 µM
CCOc1nc(N)nc2ccc(-c3cccc(NS(=O)(=O)C4CC4)c3)nc12		>20 µM
O=C(/C=C/c1cc(O)c(O)c(O)c1)OCCc1ccccc1	MTS	212.4 µM
CCOC(=O)c1c(CSc2ccccc2)n(C)c2cc(N=[N-])c3c(c12)CN(C)CO3	ATP	12 µM
COc1ccc(-c2cnc3nc(N)nc(N4CCN(C(=O)c5cccs5)CC4)c3n2)cc1OC	ATP	10–20 µM
CN(C)[C@](C)(C(=O)N1CCC[C@H]1C(=O)Nc1ccc(C#Cc2ccc(NC(=O)[C@@H]3CCCN3C(=O)[C@](C)(c3ccccc3)N(C)C)cc2)cc1)c1ccccc1	resazurin	2.13 µM
CCOC(=O)c1c(CSc2ccccc2)n(C)c2cc(Br)c(O)c(CN(N3CCN(CCO)CC3)N3CCN(CCO)CC3)c12	ATP	26.7 µM
N/C(=N\OC(=O)N1CCOCC1)c1ccc([N+](=O)[O-])cc1	MTS	>100 µM
CCc1ccc2c(Nc3cc(C)ccc3Sc3ccc(O)cc3)ncnc2n1	MTT	78 µM
Nc1ccn([C@@H]2C[C@H](CO)[C@@H](CO)C23CC3)c(=O)n1	XTT	>50 µM
N#Cc1c(Nc2ccc(Br)cc2)s[nH]c1=O		>50 µM
CC(C)CNC(=O)c1ccc(-c2ccc3nc(N)nc(OC(C)C)c3n2)cc1		>20 µM
Nc1nc(N2CCOCC2)c2nc(-c3ccc(F)cc3Cl)cnc2n1		10–20 µM
COc1ccc(Sc2ccc(C)cc2Nc2ncnc3nc(C(C)C)ccc23)cc1	MTT	8.8 µM
CN1CCN([C@H](C(=O)N2CCC[C@H]2C(=O)Nc2ccc(C#Cc3ccc(NC(=O)[C@@H]4CCCN4C(=O)[C@H](c4ccccc4)N4CCN(C)CC4)cc3)cc2)c2ccccc2)CC1	resazurin	2.84 µM
COc1ncc2c(Nc3cc(C)ccc3Sc3ccc(O)cc3)ncnc2n1	MTT	>8 µM
Cc1nc(N)nc(N[C@@H]2C[C@H](CO)[C@@H](O)[C@H]2O)c1-c1nc2ccccc2s1	MTS	18 µM
N#Cc1cccc(S(=O)(=O)N(Cc2c(Cl)cccc2Cl)c2cccc(C(=O)NC3CCC3)c2)c1	absorbance	26 µM
Cc1nc(NCc2ccccc2)nc(N[C@@H]2C[C@H](CO)[C@@H](O)[C@H]2O)c1-c1nc2ccccc2s1	MTS	0.03 µM
Oc1ccc(C23CCCC2C2(CCCC2)c2ccc(O)cc2O3)c(O)c1	MTS	27.1 µM
CCOc1ncc2c(Nc3cc(C)ccc3Sc3ccc(O)cc3)ncnc2n1	MTT	29.7 µM
CCCCCCOC(=O)/C=C/c1ccc(O)c(O)c1	MTS	37.6 µM
Cc1ccccc1COC(=O)[C@@H](NP(=O)(OC[C@H]1O[C@@H](n2cnc3c(=O)[nH]c(N)nc32)[C@](C)(O)[C@@H]1O)Oc1cccc2ccccc12)C(C)C	ATP	100 µM
CC1=CN(c2ccc([N+](=O)[O-])cc2)[C@@H](c2ccc(C(F)(F)F)cc2)[C@@H](C)C1=O	MTT	>50 µM
Nc1nc(N2CCOCC2)c2nc(-c3ccc(CN4CCOCC4)cc3)cnc2n1		>20 µM
CS(=O)(=O)CCNc1nc(N)nc2ccc(-c3ccc(C(=O)NC4CC4)cc3)nc12		>20 µM
N#Cc1c(Nc2cc(Cl)cc(Cl)c2)s[nH]c1=O		>50 µM
CCOC(=O)c1c(CSc2ccccc2)n(C)c2cc(C#N)c(O)c(CN(N3CCC(CO)CC3)N3CCC(CO)CC3)c12	ATP	>100 µM
CC(C)(C)C(=O)OCOP(=O)(CC[C@H]1O[C@@H](n2cnc3c(=O)[nH]c(N)nc32)[C@](C)(F)[C@@H]1O)OCOC(=O)C(C)(C)C	absorbance	>10 µM
Nc1ncnc2c1c(I)nn2[C@@H]1C=C(CO)[C@@H](O)[C@H]1O	tetrazolium	43.6 µM
CN(C)c1cccc2cccc(Nc3s[nH]c(=O)c3C#N)c12		>50 µM
Nc1nc(N2CCOCC2)c2nc(-c3c(Cl)cccc3Cl)cnc2n1		10–20 µM
COc1ccc(-c2cnc3nc(N)nc(N4CCN(Cc5ccccn5)CC4)c3n2)cc1OC	ATP	10–20 µM
COc1ccc([C@H]2Oc3ccc([C@H]4Oc5cc(O)cc(O)c5C(=O)[C@@H]4O)cc3O[C@@H]2CO)cc1O	absorbance	>100 µM
CNOCc1ccc(-c2cnc3nc(N)nc(N4CCOCC4)c3n2)cc1		>20 µM
N#Cc1c(Nc2ccc(C(F)(F)F)cn2)s[nH]c1=O		>50 µM
CCOc1nc(N)nc2ncc(-c3ccc(O)cc3)nc12		>20 µM
Cc1ccc(Sc2ccc(NS(C)(=O)=O)cc2)c(Nc2ncnc3nc(C(C)C)ccc23)c1	MTT	>50 µM
COc1cc(C2Oc3c(O)cc([C@H]4Oc5cc(O)cc(O)c5C(=O)[C@@H]4O)cc3[C@H]2CO)ccc1O	absorbance	>200 µM
N/C(Cc1ccc([N+](=O)[O-])cc1)=N\OC(=O)N1CCOCC1	MTS	94.6 µM
COC(=O)N[C@H](C(=O)N1CCCC1c1ncc(-c2ccc(-c3ccc(-c4cnc([C@@H]5CC(C)CN5C(=O)[C@@H](NC(=O)CO)C(C)C)[nH]4)cc3)cc2)[nH]1)C(C)C	ATP	38 µM
CN(C)[C@@H](Cc1ccccc1)C(=O)N1CCC[C@H]1C(=O)Nc1ccc(C#Cc2ccc(NC(=O)[C@@H]3CCCN3C(=O)[C@H](Cc3ccccc3)N(C)C)cc2)cc1	resazurin	5.82 µM
Nc1ncnc2c1ncn2[C@@H]1C[C@H](CO)[C@@H](CO)C12CC2	XTT	>50 µM
NS(=O)(=O)c1ccc(CNc2nc(NCC(F)(F)F)c3nc(-c4ccc(F)c(Cl)c4)cnc3n2)cc1	ATP	10–20 µM
COc1ccccc1Nc1s[nH]c(=O)c1C#N		>50 µM
O=C(O[C@@H]1Cc2c(O)cc(O)cc2O[C@@H]1c1cc(O)c(O)c(O)c1)c1ccccc1	MTS	>1000 µM
CCOC(=O)c1c(CSc2ccccn2)n(C)c2cc(Br)c3c(c12)CN(C)CO3	ATP	15.2 µM
CCOc1nc(N)nc2ncc(-c3ccncc3)nc12		<10 µM
COc1ccc(-c2cnc3nc(N)nc(N4CCN(C(=O)Oc5ccc(C)cc5)CC4)c3n2)cc1OC	ATP	<10 µM
COc1nc(N)nc2ncc(-c3ccc(F)cc3)nc12		>20 µM
CCNc1ncc2c(Nc3cc(C)ccc3Sc3ccc(O)cc3)ncnc2n1	MTT	>50 µM
COc1ccc2c(c1)[C@@H]1C[C@]1(C(=O)N1[C@@H]3CC[C@H]1CN(C)C3)Cn1c-2c(C2CCCCC2)c2ccc(C(=O)NS(=O)(=O)N(C)C)cc21	resazurin	26 µM
CCCOc1nc(N)nc2ncc(-c3ccc(F)cc3)nc12		>20 µM

Repeating the final 4 entries:

| SMILES | method | value |
|---|---|---|
| COc1nc(N)nc2ncc(-c3ccc(F)cc3)nc12 |  | >20 µM |
| CCNc1ncc2c(Nc3cc(C)ccc3Sc3ccc(O)cc3)ncnc2n1 | MTT | >50 µM |
| COc1ccc2c(c1)[C@@H]1C[C@]1(C(=O)N1[C@@H]3CC[C@H]1CN(C)C3)Cn1c-2c(C2CCCCC2)c2ccc(C(=O)NS(=O)(=O)N(C)C)cc21 | resazurin | 26 µM |
| CCCOc1nc(N)nc2ncc(-c3ccc(F)cc3)nc12 |  | >20 µM |

CCn: concentration that lowers growth or viability of the cells by n%. Blank or dashed fields: not listed here. Two numbers with a dash give a range or band.